From US20240336672A1 (INSTITUT PASTEUR, published 2024)

Key:
[1] = target: SARS-CoV-2 Omicron subvariant BA.2 RBD (SARS-CoV-2); assay: ELISA [D]
[2] = target: SARS-CoV-2 RBD (B.1.351) domain (SARS-CoV-2); assay: ELISA; set-up: unit not given beside the values

B1: COV2-2196 (parental IgG1 version) (antibody, V domains shown)
VH: QMQLVQSGPEVKKPGTSVKVSCKASGFTFMSSAVQWVRQARGQRLEWIGWIVIGSGNTNYAQKFQERVTITRDMSTSTAYMELSSLRSEDTAVYYCAAPYCSSISCNDGFDIWGQGTMVTVSS
VL: not shown
Q: Does B1 bind [1]?
A: Result: no binding

Q: What about the AUC [2] of the same binder?
A: The AUC was 3.
